In the experiment the target is SARS-CoV-2 full-length trimeric spike protein B.1 (B.1.126) (SARS-CoV-2) (UniProt P0DTC2). Kind of experiment: ELISA. In general terms: An ELISA detects its analyte on a solid surface through an enzyme-linked reagent.

REGN 10933 gave an EC50 of 0.004 nM and an IC50 of 1.1 nM.

The EC50 is the midpoint of the concentration-response curve. Higher therefore signals a need for much substance. As a reminder, the IC50 is the midpoint of a concentration-inhibition curve. High values mean a need for much substance, low ones inhibition by little substance.

The values are drawn from article PMC10030959.
